Results of unrelated studies side by side (data: NIAID ChemDB).

All rows: growth or infection tests; agent: HIV-1; read-out: EC50

Blank or dashed fields: not listed here. ECn: concentration that inhibits the pathogen or its effect by n%. Neighbouring rows are from separate reports.

compound | cells | strain | setting | changes | read by | value
CCc1c(Cc2ccccc2C)n(COCC#Cc2ccc(N)cc2)c(=O)[nH]c1=O | MT-4 | IIIB | - | K103N + Y181C | MTT | >39 µM
C#C[C@]1(COC(=O)CCCCCCCCC)O[C@@H](n2cnc3c(N)nc(F)nc32)C[C@@H]1O | U373-CD4-CXCR4 | NL4-3 | pseudotyped | M184V | - | 0.014 µM
O=C1NC(=NCc2ccc(F)cc2)S/C1=C\c1ccc(-c2ccc(C(=O)O)c(O)c2)o1 | TZM-bl | AD8 | - | - | β-galactosidase | 1 µM
Cc1cn([C@H]2C[C@H](N=[N+]=[N-])[C@@H](CO)O2)c(=O)[nH]c1=O | C8166 | A17 | - | - | p24 / ELISA / antigen | 0.01613 µM
COc1ccc(S(=O)(=O)n2cc(/C=N/NC(=O)c3ccccc3)c3ccc(C)cc32)cc1 | C8166 | IIIB | - | - | syncytia / visual reading | 3.66 µg/mL
CC(C)[C@H](NC(=O)OCc1ccccn1)C(=O)N[C@@H](Cc1ccccc1)[C@@H](O)C[C@H](Cc1ccccc1)NC(=O)OCc1cccnc1 | MT-4 | NL4-3 | - | PR-M46I L63P V82T I84V | p24 | <3 µM
O=C1NC(=NCc2ccc(Cl)cc2)S/C1=C\c1ccc(-c2ccc(C(=O)O)c(O)c2)o1 | TZM-bl | NL4-3 | - | - | β-galactosidase | 3.1 µM
NS(=O)(=O)c1ccc(CNC(=O)c2ccccc2SSc2ccccc2C(=O)NCc2ccc(S(N)(=O)=O)cc2)cc1 | CEM | - | - | - | cytopathic effect / XTT | 1.4 µM
CCc1c(Cc2cc(C)cc(C)c2)n(COCC#Cc2ccc(NC(=O)CBr)cc2)c(=O)[nH]c1=O | MT-4 | IIIB | - | WT | MTT | 0.008 µM
CCOP(=O)(OCC)C(N[C@@H](Cc1ccccc1)[C@H](O)CN(CC(C)C)S(=O)(=O)c1ccc(OC)cc1)c1ccc2c(c1)OCO2 | MT-4 | IIIB | - | - | MTT | >13.2 µg/mL
CCCCCCCCCCCCCCCCOP(=O)(OC[C@H]1OC(O)[C@@H](O)[C@@H](O)[C@@H]1O)OC[C@H]1O[C@@H](n2cc(C)c(=O)[nH]c2=O)C[C@@H]1N=[N+]=[N-] | U-937 | LAV-Bru | 14 d | - | RT activity | >1 µM
CCOP(=O)(OCC)C(N[C@@H](Cc1ccccc1)[C@H](O)CN(CC(C)C)S(=O)(=O)c1ccc(OC)cc1)C(C)C | MT-4 | ROD | - | - | MTT | >11.52 µg/mL
C=C1C[C@H](O)[C@@H]([C@@](C)(O)CCC=C(C)C)[C@@H](O)[C@@H]2C(C)=CC[C@@H]12 | 293T | - | pseudotyped | - | luciferase | >30 µM
CCc1c(Cc2cc(C)cc(C)c2)n(COC/C(=C/Sc2ccccc2)Sc2ccccc2)c(=O)[nH]c1=O | MT-4 | IIIB | - | Y181C | MTT | 7 µM
C=CS(=O)(=O)N1CCC(NS(=O)(=O)c2c(C(N)=O)[nH]c3ccc(Br)cc23)C1 | MT-4 | IIIB | - | Y181C | MTT | 2.36 µM
C[C@H]1[C@H](O)[C@@H](C)/C=C/C=C/C=C/C=C/C=C/C=C/C=C/[C@H](O[C@@H]2O[C@H](C)[C@@H](O)[C@H](N)[C@@H]2O)C[C@@H]2O[C@](O)(C[C@@H](O)C[C@@H](O)CC[C@H](O)[C@@H](O)C[C@@H](O)CC(=O)O[C@H]1C)C[C@H](O)[C@H]2C(=O)O | PBMC | YBF30 GROUP N R5 (NSI) | - | - | p24 / RT activity | 0.7 µM
C/C(=N\NC(=O)c1ccccc1)c1cn(S(=O)(=O)c2cccc([N+](=O)[O-])c2)c2cc(C)ccc12 | C8166 | IIIB | - | - | syncytia / visual reading | 0.31 µg/mL
C#C[C@]1(COC(=O)CC)O[C@@H](n2cnc3c(N)nc(F)nc32)C[C@@H]1O | U373-CD4-CXCR4 | NL4-3 | pseudotyped | M184V | - | 0.039 µM
CCOP(=O)(N[C@@H](Cc1ccccc1)[C@H](O)CN(CC(C)C)S(=O)(=O)c1ccc(OC)cc1)OCC | MT-4 | ROD | - | - | MTT | >64.5 µg/mL
C#C[C@]1(COC(=O)CCCCCCC/C=C\C/C=C\C/C=C\CC)O[C@@H](n2cnc3c(N)nc(F)nc32)C[C@@H]1O | U373-CD4-CXCR4 | NL4-3 | pseudotyped | - | - | 0.021 µM
Cc1ccc2c(c1)C1[C@H](C)CC[C@](C)(C(=O)O)[C@@H]1CC2 | C8166 | - | - | - | MTT | 16.44 µM
C/C(=N\NC(=O)c1ccccc1)c1cn(S(=O)(=O)c2ccc(Cl)cc2)c2ccc([N+](=O)[O-])cc12 | C8166 | IIIB | - | - | syncytia / visual reading | 7.27 µg/mL
O=C(NC1CC1)c1ccccc1SSc1ccccc1C(=O)NC1CC1 | CEM | - | - | - | cytopathic effect / XTT | 24 µM
C=CC(C)(/C=C\c1ccc(O)cc1)c1ccc(O)cc1.NC(=O)NO | Macrophage | 6366 | - | - | p24 | <0.00054 µM
C#C[C@]1(COC(=O)CCCCCCCCCCCCC)O[C@@H](n2cnc3c(N)nc(F)nc32)C[C@@H]1O | U373-CD4-CXCR4 | NL4-3 | pseudotyped | M184V | - | 0.01 µM
CC(C)=CCC[C@@H](C)[C@@H]1CC[C@@]2(C)O[C@@H]1[C@@H]1C(C)=C[C@@H](O)[C@H]12 | 293T | - | pseudotyped | - | luciferase | >30 µM
O=C1NC(=NCCc2ccc(F)cc2)S/C1=C\c1ccc(-c2cccc([N+](=O)[O-])c2)o1 | TZM-bl | AD8 | - | - | β-galactosidase | >10 µM
CC(=O)[C@H]1/C=C(C)/C=C\C=C(/C)C(=O)C[C@@H]2[C@]1(C)CC[C@@]2(O)C(C)C | 293T | - | pseudotyped | - | luciferase | >30 µM
CCOP(=O)(OCC)C(N[C@@H](Cc1ccccc1)[C@@H](O)CN(CC(C)C)S(=O)(=O)c1ccc(OC)cc1)c1ccc(C)cc1 | MT-4 | ROD | - | - | MTT | >4.94 µg/mL
CCc1c(Cc2cc(C)cc(C)c2)n(COCC#Cc2cc3ccccc3c3ccccc23)c(=O)[nH]c1=O | MT-4 | IIIB | - | EFV-resistant (K103R V179D P225H) | MTT | >80 µM
Cc1cn([C@H]2C[C@H](N=[N+]=[N-])[C@@H](COP(=O)(O)OCCO[C@H]3O[C@H](CO)[C@@H](O)[C@H](O)[C@@H]3O)O2)c(=O)[nH]c1=O | U-937 | LAV-Bru | 14 d | - | RT activity | >25 µM
COc1cc2c(OC3OC(C)C(OC4OC(CO)C(O)C(O)C4O)C(O)C3OC(C)=O)c3c(c(-c4ccc5c(c4)OCO5)c2cc1OC)C(=O)OC3 | PBMC | BaL | - | - | p24 / ELISA | 0.015 µM
Cc1cn(C2CC(n3nnc(C4(C(F)(F)F)OC(=O)Nc5ccc(Cl)cc54)c3C3CC3)C(CO)O2)c(=O)[nH]c1=O | TZM-bl | VB59 | - | - | luminescence | 1.43 µg/mL
N=C1Sc2ccccc2C2=NCCCN12 | PBMC | 96USNG31 | - | - | MTS | 0.14 µM
CCc1c(Cc2cc(C)cc(C)c2)n(COCC#Cc2ccc(CO)cc2)c(=O)[nH]c1=O | MT-4 | IIIB | - | WT | MTT | 0.007 µM
CC(C)=CCC[C@](C)(O)[C@@H]1CC=C(C)[C@@H]2CC=C(C)[C@H]2[C@@H]1O | 293T | - | pseudotyped | - | luciferase | >30 µM
CCOP(=O)(OCC)C(N[C@@H](Cc1ccccc1)[C@@H](O)CN(CC(C)C)S(=O)(=O)c1ccc(OC)cc1)C(C)C | MT-4 | ROD | - | - | MTT | >13.68 µg/mL
CC(=O)OC/C1=C/CC=C(C)CC[C@@H]([C@H](C)CCC=C(C)C)[C@@H](O)[C@H]1O | 293T | - | pseudotyped | - | luciferase | >30 µM
CC[C@@H](C)[C@@H](NC(=O)c1ccccc1SSc1ccccc1C(=O)N[C@@H](C(=O)O)[C@H](C)CC)C(=O)O | CEM | - | - | - | cytopathic effect / XTT | 6.3 µM
O=C1NC(=NCCc2ccc(F)cc2)S/C1=C\c1ccc(-c2ccc(C(=O)O)c(O)c2)o1 | TZM-bl | NL4-3 | - | - | β-galactosidase | 0.75 µM
O=C(N/N=C/c1cn(S(=O)(=O)c2cccc([N+](=O)[O-])c2)c2ccccc12)c1ccccc1 | C8166 | IIIB | - | - | syncytia / visual reading | 4.06 µg/mL
CCCCCCCCCCCCCCCCOP(=O)(OCCO[C@@H]1O[C@H](CO)[C@@H](O)[C@H](O)[C@@H]1O)OC[C@H]1O[C@@H](n2cc(C)c(=O)[nH]c2=O)C[C@@H]1N=[N+]=[N-] | CEM | LAV-Bru | 26 d | - | RT activity | >1 µM
COc1ccc(S(=O)(=O)n2cc(/C(C)=N/NC(=O)c3ccccc3)c3ccc(C)cc32)cc1 | C8166 | IIIB | - | - | syncytia / visual reading | 12.37 µg/mL
CN(C)CCCNC(=O)c1ccccc1SSc1ccccc1C(=O)NCCCN(C)C | CEM | - | - | - | cytopathic effect / XTT | 6.5 µM
CC(=O)OC/C1=C/C/C=C(\C)C[C@@H](O)[C@@H]([C@H](C)CCC=C(C)C)[C@@H]1CO | 293T | - | pseudotyped | - | luciferase | >30 µM
C=CCn1cc(COCn2c(Cc3cc(C)cc(C)c3)c(CC)c(=O)[nH]c2=O)nn1 | MT-4 | IIIB | - | WT | MTT | 0.01 µM
CCNC(=O)c1ccccc1SSc1ccccc1C(=O)NCC | CEM | - | - | - | cytopathic effect / XTT | >5.1 µM

6 of the rows above, restated:

compound	cells	strain	setting	changes	read by	value
C/C(=N\NC(=O)c1ccccc1)c1cn(S(=O)(=O)c2cccc([N+](=O)[O-])c2)c2cc(C)ccc12	C8166	IIIB	-	-	syncytia / visual reading	0.31 µg/mL
CCOP(=O)(OCC)C(N[C@@H](Cc1ccccc1)[C@H](O)CN(CC(C)C)S(=O)(=O)c1ccc(OC)cc1)C(C)C	MT-4	ROD	-	-	MTT	>11.52 µg/mL
CN(C)CCCNC(=O)c1ccccc1SSc1ccccc1C(=O)NCCCN(C)C	CEM	-	-	-	cytopathic effect / XTT	6.5 µM
NS(=O)(=O)c1ccc(CNC(=O)c2ccccc2SSc2ccccc2C(=O)NCc2ccc(S(N)(=O)=O)cc2)cc1	CEM	-	-	-	cytopathic effect / XTT	1.4 µM
O=C1NC(=NCc2ccc(Cl)cc2)S/C1=C\c1ccc(-c2ccc(C(=O)O)c(O)c2)o1	TZM-bl	NL4-3	-	-	β-galactosidase	3.1 µM
CC(C)=CCC[C@@H](C)[C@@H]1CC[C@@]2(C)O[C@@H]1[C@@H]1C(C)=C[C@@H](O)[C@H]12	293T	-	pseudotyped	-	luciferase	>30 µM